Compound potency records, mixed from different reports. Data source: NIAID ChemDB in PubChem.

Shared fields: growth or infection tests; species: Varicella zoster virus; endpoint: EC50

ECn is the concentration giving n% inhibition of infection, replication or growth.

structure | method | strain | cells | result
O=c1[nH]c(=O)n([C@H]2C[C@H](O)[C@@H](CO)O2)cc1/C=C/Br | plaque count | OKA (TK+) | HEL | 0.0028 µM
CC1(C)[C@@H](CCO)C[C@H]1n1nnc2c(Cl)nc(N)nc21 | plaque count | (TK-)/YS/R | HEL | >20 µg/mL
OC[C@H]1O[C@@H](c2cc(C(O)C(Br)Br)c(F)cc2F)C[C@@H]1O | plaque count | OKA (TK+) | HEL | >200 µg/mL
Nc1ncnc2c1ncn2C[C@H](O)CO | cytopathic effect | 07/1 (TK-) | HEL | 200 µg/mL
CC1(C)[C@@H](CCO)C[C@H]1n1cnc2c(N)ncnc21 | plaque count | TK+/YS | HEL | >20 µg/mL
Nc1nc2c(ncn2C[C@@H](CO)CCO)c(=O)[nH]1 | cytopathic effect / ELISA | 9/84-C | HEL | >100 µM
O=c1nc2oc(CCCCOc3ccccc3)cc2cn1[C@H]1C[C@H](O)[C@@H](CO)O1 | plaque count | (TK+)/OKA | HEL | 25 µM
O=c1nc2oc(CCOC3CCCCO3)cc2cn1[C@H]1C[C@H](O)[C@@H](CO)O1 | plaque count | OKA | HEL | >40 µM
CCCCCCCCc1cc2cn(C3C[C@@H](O)[C@@H](CO)O3)c(=O)nc2o1 | plaque count |  | HEL | 24 µM
Nc1nc2c(ncn2COCCO)c(=O)[nH]1 | plaque count | YS (TK+) |  | 0.28 µg/mL
Nc1nc2c(ncn2CCC(CO)CO)c(=O)[nH]1 | cytopathic effect | Clinical isolate VZV-5 | HEL | 2.41 µM
CC1(C)[C@@H](CCO)C[C@H]1n1cnc2c(=O)[nH]cnc21 | plaque count | (TK-)07/1 | HEL | >50 µg/mL
O=c1nc2oc(CCCC3OCCO3)cc2cn1[C@H]1C[C@H](O)[C@@H](CO)O1 | plaque count | YS | HEL | >200 µM
CCOC(=O)/C=C/C=C/[C@H]1O[C@@H](n2ccc(=O)[nH]c2=O)[C@H](O)[C@@H]1O |  | 07/1 | HEL | >120 µM
O=c1[nH]c(=O)n([C@H]2C[C@H](O)[C@@H](CO)O2)cc1/C=C/Br | cytopathic effect / ELISA | 9/84-A | HEL | >100 µM
O=c1nc2oc(CCCOc3ccccc3)cc2cn1[C@H]1C[C@H](O)[C@@H](CO)O1 | plaque count | (TK-)/YS/R | HEL | >200 µM
CCCCCc1ccc(-c2cc3cn(C4C[C@H](F)[C@@H](CO)O4)c(=O)nc3o2)cc1 |  | OKA |  | >2 µM
C=Cc1cn([C@@H]2O[C@H](CO)[C@@H](O)[C@@H]2O)c(=O)[nH]c1=O | plaque count | Kawaguchi acyclovir-resistant mutant A8 |  | 0.1055 µg/mL
Nc1nc2c(ncn2CC(CO)CCO)c(=O)[nH]1 | cytopathic effect / ELISA | 9/84 | HEL | 1 µM
COC(=O)[C@H](C)NP(=O)(OC[C@H]1O[C@@H](n2cc(/C=C/Br)c(=O)[nH]c2=O)C[C@@H]1O)Oc1ccc(Cl)cc1 | cytopathic effect | YS (TK-) | HEL | >20 µM
CC(NC(=S)Nc1ccc(NC(=O)c2ccccc2F)cc1C#N)c1ccc(F)cc1 | ELISA | JAB1244 | HFF | 0.18 µg/mL
CCCCCCCOCCc1cc2cn([C@H]3C[C@H](O)[C@@H](CO)O3)c(=O)nc2o1 | plaque count | OKA | HEL | 17 µM
Cc1cccn2c(C3OCCO3)cnc12 |  | YS | HEL | >1000 µM
CCc1ccc(OCCCc2cc3cn([C@H]4C[C@H](O)[C@@H](CO)O4)c(=O)nc3o2)cc1 | plaque count | TK+/YS | HEL | 2.8 µM
Cn1cc(C(=O)NCc2ccc(Cl)cc2)c(=O)c2cc(CN3CCOCC3)ccc21 | plaque count | Human zoster isolate | HFF | 0.5 µM
CCCCc1ccc(-c2cc3cn(C4CC[C@@H](CO)O4)c(=O)nc3o2)cc1 | plaque count | OKA (TK+) | HEL | 3.9 µM
Nc1ncnc2c1ncn2[C@@H]1C[C@H](CO)[C@@H](O)[C@@H]1O | plaque count | YS-W1 H13 | HEL | 1 µg/mL
CCCCCCCCCCc1cc2cn([C@H]3C[C@H](O)[C@@H](CO)O3)c(=O)nc2o1 | plaque count | YS | HEL | 0.008 µM
Nc1nc2c(ncn2COC(CO)CO)c(=O)[nH]1 | cytopathic effect / ELISA | 9/84-C | HEL | 51 µM
Cc1ccn2c(C3SCCS3)cnc2c1 |  | YS | HEL | >1000 µM
CC1(C)[C@H](CCO)C[C@@H]1n1cnc2c(N)ncnc21 | plaque count | 07/1 (TK-) |  | >20 µg/mL
Nc1ccn(C[C@@H](CO)OCP(=O)(O)O)c(=O)n1 | cytopathic effect | Oka acyclovir-resistant | HEL | 0.09 µM
Nc1nc(N)c2ncn(CCOCP(=O)(O)O)c2n1 | plaque count | YS (TK+) | HEL | 4.4 µM
O=c1[nH]c(=S)n([C@@H]2O[C@H](CO)[C@@H](O)[C@@H]2O)cc1CCO | plaque count | HOSEN (TK+) | MRC-5 | >244.8 µM
Cc1ccn2c(C3OCCO3)cnc2c1 |  | YS | HEL | >1000 µM
CCCCCCOc1ccc(-c2cc3cn([C@H]4C[C@H](O)[C@@H](CO)O4)c(=O)nc3o2)cc1 | cytopathic effect | 07/1 (TK-) | HEL | >50 µM
Nc1nc(=O)n([C@H]2C[C@H](O)[C@@H](CO)O2)cc1/C=C/Cl | plaque count | 07/1 (TK-) | HEL | >145 µM
O=C(O)P(=O)(O)O | cytopathic effect | Clinical isolate VZV-28 | HEL | 84.6 µM
O=c1[nH]c(=O)n([C@H]2C[C@H](O)[C@@H](CO)O2)cc1I | plaque count | OKA-H12 | HEL | 0.4 µg/mL
Nc1ncnc2c1ncn2C[C@@H](CO)OCP(=O)(O)O | cytopathic effect | YS | HEL | 0.004 µg/mL
O=C(O)CP(=O)(O)O | plaque count | Kawaguchi (BrdU-resistant) |  | 4.25 µg/mL
Nc1nc(F)nc2c1ncn2[C@@H]1C=C(CO)[C@@H](O)[C@H]1O | cytopathic effect | OKA YS | HEL | 10 µg/mL
O=C(NCc1ccc(Cl)cc1)c1c[nH]c2c(F)cccc2c1=O | plaque count | CAR |  | 1.5 µM
Cc1ccn2c(C(SCCc3ccccc3)SCCc3ccccc3)cnc2c1 |  | YS/R | HEL | >1000 µM
CCCCCc1ccc(-c2cc3cn(C4CC[C@@H](CO)O4)c(=O)nc3o2)cc1 | plaque count | YS (TK+) | HEL | 1.5 µM
CCCCCOc1ccc(-c2cc3cn([C@H]4C[C@H](O)[C@@H](CO)O4)c(=O)nc3o2)cc1 | cytopathic effect | OKA | HEL | <0.5 µM
Nc1ncnc2c1ncn2C[C@@H](CO)OCP(=O)(O)O | cytopathic effect | Oka BVDU-resistant | HEL | 0.08 µM
O=c1[nH]cnc2c1ncn2C1C[C@H](CO)[C@@H](CO)C1 |  | OKA | HEL | >100 µg/mL
Nc1nc2c(ncn2CCC(CO)CO)c(=O)[nH]1 | plaque count | OKA (TK+) | HEL | 2.9 µM
Nc1ncnc2c1ncn2[C@@H]1C[C@H](CO)[C@@H](O)[C@@H]1O | cytopathic effect / ELISA | 9/84 | HEL | 27 µM
OC[C@H]1CC(n2cnc3c(NC4CC4)ncnc32)C[C@@H]1CO |  | 07/1 (TK-) | HEL | >100 µg/mL
CCc1cn([C@H]2C[C@H](O)[C@@H](CO)O2)c(=S)[nH]c1=O | plaque count | HOSEN (TK+) | MRC-5 | 34.6 µM
CCCCCCCOc1ccc(-c2cc3cn([C@H]4C[C@H](O)[C@@H](CO)O4)c(=O)nc3o2)cc1 | cytopathic effect | YS | HEL | <0.5 µM
OC[C@H]1O[C@@H](c2cc(C(O)CBr)c(F)cc2F)C[C@@H]1O | plaque count | YS/R (TK-) | HEL | >20 µg/mL
CC1(C)[C@@H](CCO)C[C@H]1n1nnc2c(=O)[nH]c(N)nc21 | plaque count | (TK-)07/1 | HEL | >50 µg/mL
CC1(C)[C@H](CCO)C[C@@H]1n1nnc2c(=O)[nH]cnc21 | plaque count | OKA (TK+) |  | >50 µg/mL
COC(=O)[C@H](C)NP(=O)(OC[C@H]1O[C@@H](n2cc(/C=C/Br)c(=O)[nH]c2=O)C[C@@H]1O)Oc1ccccc1 | cytopathic effect | YS | HEL | 0.26 µM
O=c1[nH]c(=O)n([C@H]2C[C@H](O)[C@@H](CO)O2)cc1/C=C/Cl | plaque count | YS (TK+) | HEL | 0.03 µM
COc1ccc(-c2cc3cn([C@H]4C[C@H](O)[C@@H](CO)O4)c(=O)nc3o2)cc1 | cytopathic effect | YS/R (TK-) | HEL | >50 µM
Cc1cn([C@H]2C[C@H](O)[C@@H](CO)O2)c(=S)nc1N | plaque count | HOSEN (TK+) | MRC-5 | 36.1 µM
O=c1[nH]c(=O)n([C@@H]2C[C@H](CO)C[C@H]2CO)cc1I |  | 07/1 (TK-) | HEL | >100 µg/mL
Nc1nc2c(ncn2C[C@H](CO)CCO)c(=O)[nH]1 | cytopathic effect / ELISA | 9/84 | HEL | 13.2 µM
CCCc1cn([C@H]2C[C@H](O)[C@@H](CO)O2)c(=S)nc1N | plaque count | HOSEN (TK+) | MRC-5 | >277.4 µM

9 of the rows above, restated:

structure,method,strain,cells,result
O=C(O)P(=O)(O)O,cytopathic effect,Clinical isolate VZV-28,HEL,84.6 µM
Nc1nc2c(ncn2C[C@@H](CO)CCO)c(=O)[nH]1,cytopathic effect / ELISA,9/84-C,HEL,>100 µM
O=c1[nH]cnc2c1ncn2C1C[C@H](CO)[C@@H](CO)C1,,OKA,HEL,>100 µg/mL
Nc1nc(=O)n([C@H]2C[C@H](O)[C@@H](CO)O2)cc1/C=C/Cl,plaque count,07/1 (TK-),HEL,>145 µM
O=c1[nH]c(=O)n([C@@H]2C[C@H](CO)C[C@H]2CO)cc1I,,07/1 (TK-),HEL,>100 µg/mL
Nc1nc2c(ncn2COCCO)c(=O)[nH]1,plaque count,YS (TK+),,0.28 µg/mL
COC(=O)[C@H](C)NP(=O)(OC[C@H]1O[C@@H](n2cc(/C=C/Br)c(=O)[nH]c2=O)C[C@@H]1O)Oc1ccccc1,cytopathic effect,YS,HEL,0.26 µM
CCOC(=O)/C=C/C=C/[C@H]1O[C@@H](n2ccc(=O)[nH]c2=O)[C@H](O)[C@@H]1O,,07/1,HEL,>120 µM
Nc1ncnc2c1ncn2[C@@H]1C[C@H](CO)[C@@H](O)[C@@H]1O,cytopathic effect / ELISA,9/84,HEL,27 µM

Blank or dashed fields: not listed here. Lines come from different laboratories, so protocols vary.